B1: Re6H06 (VHH)
VHH: QVQLVESGGGLVQPGGSLRLSCAASGVTLDYYAIGWFRQAPGKEREGVSCTSSSDGSTYYADSVKGRFTISRDNAKNTVYLQMNSLKPEDTGVYYCAVVPQTYYGGKYYSQCTANGMDYWGKGTLVTVSS
B2: Re9B09 (VHH)
VHH: QVQLVESGGGLVQPGGSLRLSCAASGFTLDYYAIGWFRQAPGKEREGVSRISSSDGSTDYADSVKGRFTISRDNAKNTVYLQMNSLKPEDTAVYYCATVPGTYYSGNWYYTWHPEAVDYWGKGTQVTVSS
notes: also called ReB09

Target: SARS-CoV-2 spike protein, original Wuhan strain (SARS-CoV-2 (Wuhan strain))
Test: cell-based or functional assay

Binder | Lowest neutralizing concentration (pM)
B1 | 170 pM
B2 | 500 pM

Source: US20250019422A1 (MAX PLANCK GESELLSCHAFT ZUR F RDERUNG DER WISSENSCHAFTEN E V, published 2025)
